Data reported in article PMC4728508 (Marine Drugs, 2016).

Protein sequences, listed by entry. Tags and fused reporters are not part of them. Residues count along the entry.
UniProt P04757, 26-499 limits assumed: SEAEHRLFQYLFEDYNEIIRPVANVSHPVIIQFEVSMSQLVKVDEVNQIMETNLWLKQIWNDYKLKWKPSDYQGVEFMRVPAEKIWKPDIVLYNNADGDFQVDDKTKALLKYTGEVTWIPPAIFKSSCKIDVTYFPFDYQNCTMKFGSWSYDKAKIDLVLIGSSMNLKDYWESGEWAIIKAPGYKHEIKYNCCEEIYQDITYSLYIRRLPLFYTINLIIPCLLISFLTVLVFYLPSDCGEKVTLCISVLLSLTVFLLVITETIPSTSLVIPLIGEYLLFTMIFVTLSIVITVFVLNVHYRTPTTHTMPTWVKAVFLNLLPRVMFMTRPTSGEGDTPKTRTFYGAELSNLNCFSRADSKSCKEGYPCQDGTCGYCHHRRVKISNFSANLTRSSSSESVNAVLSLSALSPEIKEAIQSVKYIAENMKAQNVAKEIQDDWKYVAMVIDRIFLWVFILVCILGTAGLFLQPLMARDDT
UniProt P12390, 25-500 limits assumed: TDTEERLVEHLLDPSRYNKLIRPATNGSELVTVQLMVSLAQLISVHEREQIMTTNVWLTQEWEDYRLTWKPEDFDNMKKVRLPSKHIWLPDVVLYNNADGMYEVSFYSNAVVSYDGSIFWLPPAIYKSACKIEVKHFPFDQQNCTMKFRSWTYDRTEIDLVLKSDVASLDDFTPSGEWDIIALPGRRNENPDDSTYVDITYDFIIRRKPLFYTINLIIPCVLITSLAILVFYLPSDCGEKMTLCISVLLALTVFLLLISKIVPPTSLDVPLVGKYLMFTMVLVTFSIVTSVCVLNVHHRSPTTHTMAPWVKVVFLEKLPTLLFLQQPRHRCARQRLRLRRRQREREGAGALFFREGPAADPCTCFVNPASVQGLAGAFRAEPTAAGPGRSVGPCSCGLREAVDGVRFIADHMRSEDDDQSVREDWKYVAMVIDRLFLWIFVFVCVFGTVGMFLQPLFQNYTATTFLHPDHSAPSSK
UniProt P17787, 26-502 limits assumed: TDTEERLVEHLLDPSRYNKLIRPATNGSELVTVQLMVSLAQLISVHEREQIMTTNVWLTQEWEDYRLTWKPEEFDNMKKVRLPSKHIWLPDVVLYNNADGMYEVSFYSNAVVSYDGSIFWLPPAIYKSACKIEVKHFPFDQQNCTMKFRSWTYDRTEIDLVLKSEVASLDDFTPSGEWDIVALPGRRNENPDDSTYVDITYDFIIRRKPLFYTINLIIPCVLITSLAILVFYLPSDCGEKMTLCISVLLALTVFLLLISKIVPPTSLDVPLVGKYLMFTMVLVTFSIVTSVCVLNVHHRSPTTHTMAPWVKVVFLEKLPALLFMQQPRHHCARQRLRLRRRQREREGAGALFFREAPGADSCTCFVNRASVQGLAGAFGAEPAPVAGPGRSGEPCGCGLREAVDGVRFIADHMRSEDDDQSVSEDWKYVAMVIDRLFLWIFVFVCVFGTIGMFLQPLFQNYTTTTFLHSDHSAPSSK
UniProt P32297, 32-505 limits assumed: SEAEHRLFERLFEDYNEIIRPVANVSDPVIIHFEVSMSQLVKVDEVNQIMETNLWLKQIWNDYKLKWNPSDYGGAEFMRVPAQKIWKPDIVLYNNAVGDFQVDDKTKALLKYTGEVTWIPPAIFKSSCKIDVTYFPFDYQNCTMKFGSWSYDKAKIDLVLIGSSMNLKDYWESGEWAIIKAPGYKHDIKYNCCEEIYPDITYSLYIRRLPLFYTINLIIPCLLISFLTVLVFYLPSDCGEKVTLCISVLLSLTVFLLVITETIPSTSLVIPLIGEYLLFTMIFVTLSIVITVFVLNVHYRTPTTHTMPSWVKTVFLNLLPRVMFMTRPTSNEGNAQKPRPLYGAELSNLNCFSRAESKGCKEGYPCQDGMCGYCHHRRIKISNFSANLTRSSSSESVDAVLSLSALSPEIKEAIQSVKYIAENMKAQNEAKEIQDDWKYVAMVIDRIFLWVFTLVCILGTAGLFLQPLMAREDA

Tests used:
[1] = system: Kunming mice; experiment: Mouse hot-plate test (55 °C); assay type: in vivo
[2] = target: rat α3β2 nAChR (Rattus norvegicus, UniProt P04757+P12390); experiment: Two-electrode voltage clamp, ACh-evoked currents, rat α3β2 nAChR in Xenopus oocytes; assay type: cell-based
[3] = target: human α3β2 nAChR (Homo sapiens, UniProt P17787+P32297); experiment: Two-electrode voltage clamp, ACh-evoked currents, human α3β2 nAChR in Xenopus oocytes; assay type: cell-based

SMILES: CC[C@H](C)[C@@H]1NC(=O)[C@H](CCC(=O)O)NC(=O)[C@@H]2CCCN2C(=O)[C@H](Cc2c[nH]cn2)NC(=O)[C@H](CC(=O)O)NC(=O)[C@H](C(C)C)NC(=O)[C@H](CC(N)=O)NC(=O)[C@@H]2CSSC[C@H](NC(=O)CNC(=O)[C@@H](N)CCSC)C(=O)N[C@@H](CSSC[C@@H](C(=O)O)NC1=O)C(=O)N[C@@H](CO)C(=O)N[C@@H](Cc1c[nH]cn1)C(=O)N1CCC[C@H]1C(=O)N[C@@H](C)C(=O)N2 [rLvIA]
- AUC of latency versus morphine 250 nmol ([1]; rLvIA 10 nmol i.c.v. vs morphine 250 nmol s.c., p > 0.05): did not significantly differ
- latency time (maximum effect) ([1]; rLvIA 10 nmol i.c.v., 90 min after injection, 55 °C hot plate, n = 8, cut off 40 s): 24.17 s
- AUC of latency, 0 to 150 min, versus saline ([1]; rLvIA 10 nmol i.c.v., p < 0.01, n = 8): significant increase in AUC
- blockade of ACh-evoked currents ([2]; 1 μM rLvIA, rat α3β2, 5 min pre-application, 100 μM ACh): More than 90%
- blockade of α3β2 ([2]; 1 μM rLvIA, rat α3β2, Figure 6A): almost blocked α3β2 at 1 μM concentration completely
- Target ([2]; Table 3, Activity/Target, rLvIA, This work): α3β2 nAChRs
- selectivity rat α3β2 versus α3β4 ([2]; rLvIA compared with native LvIA): better selectivity in rat α3β2 than α3β4 nAChR subtypes
- IC50 ([2]; rLvIA on rat α3β2 nAChR in Xenopus oocytes, 1-s pulse of 100 μM ACh, toxin pre-applied 5 min, −70 mV, room temperature (24 °C), 5 to 8 separate oocytes, nonlinear regression): 161 nM
- antagonism of α3β2 nAChR ([2]; rat nAChR subtypes in Xenopus laevis oocytes): antagonized the α3β2 nAChR subtype selectively
- IC50 ([2]; α3β2 nAChR subtype, abstract): nano-molar
- IC50 ([3]; rLvIA on human α3β2 nAChR in Xenopus oocytes, 1-s pulse of 100 μM ACh, toxin pre-applied 5 min, −70 mV, room temperature (24 °C), 5 to 8 separate oocytes, nonlinear regression): 46.8 nM
- activity human versus rat α3β2 ([3]; rLvIA, human vs rat α3β2): better activity in the human α3β2 nAChR than on the rat α3β2 nAChR

Some compounds may have been tested in ways that are not shown here.
